Measurements: US20050118678A1, “Modified polypeptides with therapeutic activity and methods of use” (priority 2003, published 2005)
Residues, ends and D or L forms follow the SMILES beside them. *: point of attachment. Stearoyl = CCCCCCCCCCCCCCCCCC(=O)*; Lauroyl = CCCCCCCCCCCC(=O)*

Assay: Tryptophan fluorescence spectroscopy in water and membrane mimics
Type: physicochemical
Settings: for Tryptophan fluorescence emission maximum, DPC: DPC micelles 1:500, 25° C.; for Tryptophan fluorescence emission maximum, DPC / Tryptophan fluorescence emission maximum, SDS: n = 1; for Tryptophan fluorescence emission maximum, DPPC: DPPC liposomes; for Tryptophan fluorescence emission maximum, DPPC / Tryptophan fluorescence emission maximum, DPPE/DPPG: peptide-lipid 1:20, 25° C.; for Tryptophan fluorescence emission maximum, DPPC / Tryptophan fluorescence emission maximum, DPPE/DPPG / Tryptophan fluorescence emission maximum, Water: 5 μM, n = 3; for Tryptophan fluorescence emission maximum, DPPE/DPPG: DPPE/DPPG liposomes; for Tryptophan fluorescence emission maximum, SDS: SDS micelles 1:1000, 25° C.; for Tryptophan fluorescence emission maximum, Water: excitation 280 nm, 25° C.

Row | Compound | Tryptophan fluorescence emission maximum, DPC [nm] | Tryptophan fluorescence emission maximum, DPPC [nm] | Tryptophan fluorescence emission maximum, DPPE/DPPG [nm] | Tryptophan fluorescence emission maximum, SDS [nm] | Tryptophan fluorescence emission maximum, Water [nm]
1 | CCCCCCCCCCCC(=O)N[C@@H](CCCCN)C(=O)N[C@@H](CC(C)C)C(=O)N[C@@H](Cc1ccccc1)C(=O)N[C@@H](CCCCN)C(=O)N[C@@H](CCCNC(=N)N)C(=O)N[C@@H](Cc1c[nH]cn1)C(=O)N[C@@H](CC(C)C)C(=O)N[C@@H](CCCCN)C(=O)N[C@@H](Cc1c[nH]c2ccccc12)C(=O)N[C@@H](CCCCN)C(=O)N[C@H](C(=O)N[C@H](C(N)=O)[C@@H](C)CC)[C@@H](C)CC [C12-SC4] (Lauroyl-KLFKRHLKWKII-NH2) | 344 | 348.7 ± 2.1 | 338.0 ± 0.0 | 341 | 353.0 ± 1.0
2 | CCCCCCCCCCCCCCCCCC(=O)N[C@@H](CCCCN)C(=O)N[C@@H](CC(C)C)C(=O)N[C@@H](Cc1ccccc1)C(=O)N[C@@H](CCCCN)C(=O)N[C@@H](CCCNC(=N)N)C(=O)N[C@@H](Cc1c[nH]cn1)C(=O)N[C@@H](CC(C)C)C(=O)N[C@@H](CCCCN)C(=O)N[C@@H](Cc1c[nH]c2ccccc12)C(=O)N[C@@H](CCCCN)C(=O)N[C@H](C(=O)N[C@H](C(N)=O)[C@@H](C)CC)[C@@H](C)CC [C18-SC4] (Stearoyl-KLFKRHLKWKII-NH2) | 344 | 349.0 ± 1.7 | 339.7 ± 3.2 | 342 | 353.3 ± 1.2
